Test results taken from US8574608B2, “Bactericidal silver surfactant delivery into coating and polymer compositions” (Eastern Michigan Universtity, priority 2007, dated 2013).

Legend:
E. coli [1] = experiment: E. coli challenged by silver surfactants in commercial alkyd paint; format: cell-based, Escherichia coli; settings: 24 h contact time; for surviving bacteria (growth): alkyd resin paint coating; for surviving bacteria (growth): key: A minus sign (−) denotes no growth; a plus sign (+) denotes confluent growth; a capital P (P) denotes particle growth
[2] = system: Escherichia coli ATCC 11229; experiment: E. coli challenge by fabrics sprayed with AgAOT; settings: for effect on E. coli: 0.24% silver solution sprayed
S. aureus = experiment: PU composition containing AgAOT used to challenge S. aureus; settings: 24 h contact time; for surviving bacteria (growth), S. aureus: PU slab
E. coli [3] = experiment: E. coli challenged by silver surfactants in commercial acrylic paint; format: cell-based, Escherichia coli; settings: 24 h contact time; for surviving bacteria (growth): commercial solvent borne acrylate paint coating; for surviving bacteria (growth): key: A minus sign (−) denotes no growth; a plus sign (+) denotes confluent growth; a capital P (P) denotes particle growth
[4] = system: Staphylococcus aureus ATCC 6538; experiment: S. aureus challenge by household surfaces sprayed with AgAOT; settings: for CFU/mL, Avg / CFU/mL, Run #1-#2: sprayed 0.06% silver solution
P. aeruginosa ATCC 15442 = experiment: Challenge of P. aeruginosa by AgAOT doped polyurethane coatings on microscope slides
E. coli [5] = experiment: PU composition containing AgAOT used to challenge E. coli; settings: 24 h contact time; for surviving bacteria (growth), E. coli: PU slab
[6] = acetate, sprayed 0.06% w/w AgAOT/isopropanol, 24 h contact time
[7] = cotton, sprayed 0.06% w/w AgAOT/isopropanol, 24 h contact time
[8] = linen, sprayed 0.06% w/w AgAOT/isopropanol, 24 h contact time
[9] = polyester, sprayed 0.06% w/w AgAOT/isopropanol, 24 h contact time
[10] = silk, sprayed 0.06% w/w AgAOT/isopropanol, 0 h contact time
[11] = silk, sprayed 0.24% w/w AgAOT/isopropanol, E. coli - 0 h
[12] = silk, sprayed 0.24% w/w AgAOT/isopropanol, E. coli - 24 h
[13] = 0.01 weight % Ag in PU composition
[14] = 0.03 weight % Ag in PU composition
[15] = 0.10 weight % Ag in PU composition
[16] = 0.30 weight % Ag in PU composition
[17] = 1.0 weight % Ag in PU composition
[18] = 3.0 weight % Ag in PU composition

silver bis[2-ethylhexyl]sulfosuccinate
surviving bacteria (growth) (E. coli [1]; 0.06 weight % Ag in coating): −
surviving bacteria (growth) (E. coli [1]; 0.12 weight % Ag in coating): −
silver level effective at preventing any growth (E. coli [1]; alkyd resin paint): 0.012 % w/w
silver level partially effective (E. coli [1]; alkyd resin paint): 0.006 % w/w
CFU/mL, Average ([2]; acetate, sprayed 0.06% w/w AgAOT/isopropanol, 0 h contact time): 3.08E+05 CFU/mL
CFU/mL, Average [2, 6]: 0.00E+00 CFU/mL
CFU/mL, Run #1-#4 [2, 6]: 0.00E+00 CFU/mL
CFU/mL, Average ([2]; cotton, sprayed 0.06% w/w AgAOT/isopropanol, 0 h contact time): 2.53E+05 CFU/mL
CFU/mL, Average [2, 7]: 0.00E+00 CFU/mL
CFU/mL, Run #1-#4 [2, 7]: 0.00E+00 CFU/mL
E. coli eradication ([2]; each fabric except silk, 0.06% silver solution sprayed, 24 h contact time): complete eradication
attenuation of E. coli growth ([2]; fabrics, 0.06% silver solution sprayed, 0 h contact time (5-10 minutes)): do not significantly attenuate
attenuation of E. coli growth ([2]; linen and polyester, 0.06% silver solution sprayed, 0 h contact time): partial attenuation
CFU/mL, Average ([2]; linen, sprayed 0.06% w/w AgAOT/isopropanol, 0 h contact time): 1.46E+05 CFU/mL
CFU/mL, Average [2, 8]: 0.00E+00 CFU/mL
CFU/mL, Run #1-#4 [2, 8]: 0.00E+00 CFU/mL
CFU/mL, Average ([2]; polyester, sprayed 0.06% w/w AgAOT/isopropanol, 0 h contact time): 9.10E+04 CFU/mL
CFU/mL, Average [2, 9]: 0.00E+00 CFU/mL
CFU/mL, Run #1-#4 [2, 9]: 0.00E+00 CFU/mL
CFU/mL, Average ([2]; rayon, sprayed 0.06% w/w AgAOT/isopropanol, 0 h contact time): 2.88E+05 CFU/mL
CFU/mL, Average ([2]; rayon, sprayed 0.06% w/w AgAOT/isopropanol, 24 h contact time): 3.25E+05 CFU/mL
effect on E. coli ([2]; silk, 0 h contact time (5-10 minutes)): neither organism was significantly affected
effect on E. coli ([2]; silk, 24 h contact): eradicated completely
CFU/mL, Average [2, 10]: 2.55E+05 CFU/mL
CFU/mL, Run #1-#2 [2, 10]: 2.70E+05 CFU/mL and 2.40E+05 CFU/mL
CFU/mL, Average ([2]; silk, sprayed 0.06% w/w AgAOT/isopropanol, 24 h contact time): 2.75E+07 CFU/mL
CFU/mL, Average [2, 11]: 3.38E+05 CFU/mL
CFU/mL, Run #1-#4 [2, 11]: 3.20E+05 CFU/mL and 3.60E+05 CFU/mL and 3.10E+05 CFU/mL
CFU/mL, Average [2, 12]: 0.00E+00 CFU/mL
CFU/mL, Run #1-#4 [2, 12]: 0.00E+00 CFU/mL
silver level giving complete inhibition (S. aureus; AgAOT incorporated into PU): 0.30 % w/w silver
surviving bacteria (growth), S. aureus (S. aureus; [13]): +
surviving bacteria (growth), S. aureus (S. aureus; [14]): +
surviving bacteria (growth), S. aureus (S. aureus; [15]): +
surviving bacteria (growth), S. aureus (S. aureus; [16]): −
surviving bacteria (growth), S. aureus (S. aureus; [17]): −
surviving bacteria (growth), S. aureus (S. aureus; [18]): −
silver level partially effective (E. coli [3]; commercial acrylic paint): 0.03 % Ag w/w
surviving bacteria (growth) (E. coli [3]; 0.0012 weight % Ag in coating): +
surviving bacteria (growth) (E. coli [3]; 0.003 weight % Ag in coating): +
surviving bacteria (growth) (E. coli [3]; 0.006 weight % Ag in coating): +
surviving bacteria (growth) (E. coli [3]; 0.012 weight % Ag in coating): +
surviving bacteria (growth) (E. coli [3]; 0.03 weight % Ag in coating): P
surviving bacteria (growth) (E. coli [3]; 0.06 weight % Ag in coating): −
surviving bacteria (growth) (E. coli [3]; 0.12 weight % Ag in coating): −
killing of S. aureus ([4]; each of the surfaces (metal plate, wall paper, vinyl tile), 24 h contact time): Complete killing
CFU/mL, Avg ([4]; metal plate, 0 h contact time): 3.90E+04 CFU/mL
CFU/mL, Avg ([4]; metal plate, 24 h contact time): 0.00E+00 CFU/mL
CFU/mL, Run #1-#2 ([4]; metal plate, 24 h contact time): 0.00E+00 CFU/mL
CFU/mL, Avg ([4]; vinyl tile, 0 h contact time): 1.25E+05 CFU/mL
CFU/mL, Avg ([4]; vinyl tile, 24 h contact time): 0.00E+00 CFU/mL
CFU/mL, Run #1-#2 ([4]; vinyl tile, 24 h contact time): 0.00E+00 CFU/mL
CFU/mL, Avg ([4]; wall-paper, 0 h contact time): 9.75E+04 CFU/mL
CFU/mL, Avg ([4]; wall-paper, 24 h contact time): 0.00E+00 CFU/mL
CFU/mL, Run #1-#2 ([4]; wall-paper, 24 h contact time): 0.00E+00 CFU/mL
killing the P. aeruginosa (P. aeruginosa ATCC 15442; 0.0012% weight Ag relative to overall coating weight, 24 h exposure): effective at killing
overall level effective as a bactericide (P. aeruginosa ATCC 15442; 24 hours of exposure): 0.006 % weight silver relative to coating weight
level that appears to kill all of the P. aeruginosa (P. aeruginosa ATCC 15442; both 12 and 24 h exposure): ≥ 0.031 % weight Ag relative to coating weight
silver level giving complete inhibition (E. coli [5]; AgAOT incorporated into PU): 0.30 % w/w silver
surviving bacteria (growth), E. coli (E. coli [5]; [13]): +
surviving bacteria (growth), E. coli (E. coli [5]; [14]): +
surviving bacteria (growth), E. coli (E. coli [5]; [15]): +
surviving bacteria (growth), E. coli (E. coli [5]; [16]): −
surviving bacteria (growth), E. coli (E. coli [5]; [17]): −
surviving bacteria (growth), E. coli (E. coli [5]; [18]): −

“And” between values parts separate entries of the source, which are not always exact repeats. Equal values may be shown once.
